Compound potency records, mixed from different reports. Data source: NIAID ChemDB in PubChem.

Shared fields: growth or infection tests; agent: Mycobacterium tuberculosis

Two numbers with a dash give a range or band. ECn: concentration that inhibits the pathogen or its effect by n%. MIC bound comes from a single tested concentration. Fold resistance has wild type as its base. Neighbouring rows are from separate reports. A number after MIC or MFC names an inhibition level or a share of isolates. An empty or dashed field is not shown. Percent inhibition refers to the dose given; in toxicity tests it is the harm to the cells.

smiles,endpoint,conditions,method,strain,tested at,cell line,changes,result
CCOc1cccc(C(=O)N(Cc2ccccc2)C2CCS(=O)(=O)C2)c1,MIC,-,resazurin,Clinical isolate,-,-,-,4 µg/mL
O=C(/C=C/c1cc2cc(F)ccc2nc1Cl)c1cccs1,inhibition,-,broth dilution,H37Rv,6.25 µM,-,-,21%
CCCCCCCCc1ccc(Oc2ccccc2)c(O)c1,MIC99,-,-,NHN20,-,-,-,2.4 µg/mL
CC(=O)c1c(C)[nH]c(C(=O)N/N=C/c2cccc([N+](=O)[O-])c2)c1C,inhibition,-,resazurin,H37Rv,6.25 µg/mL,-,-,18%
CCCCSc1nc(C(N)=O)cnc1C(C)(C)C,inhibition,-,-,H37Rv,12.5 µg/mL,-,-,<90%
NNC(=O)c1ccncc1,MIC99,-,-,W210,-,-,-,0.03 µg/mL
CCOc1ccc(-c2cc(=O)c3c(OC)c(OC)c(OC)c(OC)c3o2)cc1,inhibition,-,-,H37Rv,6.25 µg/mL,-,-,13%
NC1[C@H]2CN(c3nc4c(cc3F)c(=O)c(C(=O)O)cn4-c3ccc(F)cc3F)C[C@@H]12,Mean MIC,-,-,250 isolates,-,-,-,30.7 µg/mL
COc1ccc(CCC2CCc3ccccc3N2C)cc1OC,MIC,-,-,MT9,-,-,-,>100 µg/mL
CCOc1ccc(-c2cc(-c3cc4cc(F)ccc4nc3Cl)nc(N)c2C#N)cc1,inhibition,-,broth dilution,H37Rv,6.25 µg/mL,-,-,24%
C[C@H]1[C@H](c2ccc(O)cc2)c2cc(O)c(O)cc2C[C@H]1C,MIC,-,resazurin,H37Rv,-,-,-,>50 µg/mL
C=C(C[N+](C)(C)C)N/N=C/c1oc(-c2ccc(OC)c(OC)c2)c(-c2ccc(OC)c(OC)c2)c1[N+](=O)[O-].[Cl-],inhibition,-,BACTEC,H37Rv,12.5 µg/mL,-,-,-16%
CCCCc1ncc(C(N)=S)nc1SCC,inhibition,-,-,H37Rv,12.5 µg/mL,-,-,77%
CC(C)C1CCC(=O)c2c1ncc1c2C(=O)C2=C(C1=O)C1CCC2C1,EC90,-,luminescence,H37Rv,-,-,pSMT1 luciferase reporter plasmid,24.66 µg/mL
Nc1nc(N)c2c(ccc3c2ccn3Cc2cccc([N+](=O)[O-])c2)n1,inhibition,-,resazurin,H37Rv,6.25 µg/mL,-,-,100%
COc1ccc(-c2cc(-c3ccc4oc(=O)c(-c5ccccc5)c(C)c4c3)nc3c2CCc2ccccc2-3)cc1,inhibition,-,agar / visual reading,H37Rv,250 µg/mL,-,-,47%
NC[C@H]1O[C@H](O[C@H]2[C@H](O)[C@@H](O[C@H]3O[C@H](CO)[C@@H](O)[C@H](N)[C@H]3O)[C@H](N)C[C@@H]2N)[C@H](O)[C@@H](O)[C@@H]1O,MIC,-,-,TN2793,-,-,-,32 µg/mL
Cc1c(O)cc2c(c1O)C(=O)CC(c1ccc(O)cc1)O2,MIC bound,-,BACTEC,H37Rv,-,-,-,>12.5 µg/mL
CCCSc1nc(C(N)=O)cnc1CCC,inhibition,-,-,H37Rv,12.5 µg/mL,-,-,<90%
O=c1[nH]c2c(Cl)c(Cl)ccc2c(O)c1N=Nc1ccccc1,inhibition,-,resazurin,H37Rv,6.25 µg/mL,-,-,85%
CO[C@H]1/C=C/O[C@@]2(C)Oc3c(C)c(O)c4c(O)c(c(/C=N/N5CCN(C)CC5)c(O)c4c3C2=O)NC(=O)/C(C)=C\C=C\[C@H](C)[C@H](O)[C@@H](C)[C@@H](O)[C@@H](C)[C@H](OC(C)=O)[C@@H]1C,MIC,-,-,H37Rv,-,-,-,0.06 µg/mL
CCCSc1nc(C(N)=S)cnc1CC(C)C,MIC,-,-,H37Rv,-,-,-,>6.25 µg/mL
CCCN1CNC(=S)N(c2ccc(C(=O)OCC)cc2)C1,MIC,-,resazurin,18b,-,-,-,16 µg/mL
Cc1c(-c2ccccc2)c(=O)oc2ccc(-c3cc(-c4ccc(F)cc4)c4c(n3)-c3ccccc3C4)cc12,inhibition,-,agar / visual reading,H37Rv,250 µg/mL,-,-,49%
O=C(/C=C/c1cc2cc(Br)ccc2nc1Cl)c1ccc(F)cc1,inhibition,-,broth dilution,H37Rv,6.25 µg/mL,-,-,99%
CC(C)(C)c1ncc(C(N)=O)nc1Sc1ccccc1,MIC,-,-,H37Rv,-,-,-,>12.5 µg/mL
C=CC(C)(O)CCc1ccccn1,MIC bound,-,-,H37Rv,-,-,-,>6.25 µg/mL
CCCCSc1nc(C(N)=S)cnc1CCC,inhibition,-,-,H37Rv,12.5 µg/mL,-,-,<90%
C[C@H]1COc2c(N3CCN(C)CC3)c(F)cc3c(=O)c(C(=O)O)cn1c23,MIC90,-,-,206 isolates (susceptible),-,-,-,1 µg/mL
Cc1c(-c2ccccc2)c(=O)oc2ccc(-c3cc(-c4ccc(F)cc4)c4oc5ccccc5c4n3)cc12,inhibition,-,agar / visual reading,H37Rv,250 µg/mL,-,-,62%
CO[C@H]1/C=C/O[C@@]2(C)Oc3c(C)c(O)c4c(c3C2=O)C(=O)C=C(NC(=O)/C(C)=C\C=C\[C@H](C)[C@H]2OC(C)(C)O[C@@H]([C@@H](C)[C@H](OC(C)=O)[C@@H]1C)[C@@H]2C)C4=O,MIC bound,-,BACTEC,H37Rv,-,-,-,≤12.5 µg/mL
Cc1c(-c2ccccc2)c(=O)oc2ccc(-c3cc(-c4ccc(Cl)cc4)c4c(n3)-c3ccccc3CC4)cc12,inhibition,-,agar / visual reading,H37Rv,250 µg/mL,-,-,44%
COC(=O)c1nnn(CC(=O)Nc2ccc(C)c(F)c2)c1C(=O)OC,MIC,-,resazurin,18b,-,-,-,16 µg/mL
Cc1c(Cl)cccc1N=Nc1c(O)c2ccc([N+](=O)[O-])cc2[nH]c1=O,inhibition,-,resazurin,H37Rv,6.25 µg/mL,-,-,98%
CC1COc2c(N3CCN(C)CC3)c(F)cc3c(=O)c(C(=O)O)cn1c23,MIC50,-,-,9 isolates (RMP INH-S),-,-,-,1 µg/mL
NC(=O)c1ccncc1,MIC,-,resazurin,CF74,-,-,-,>25 µg/mL
COc1ccc(-c2cc(-c3ccc4oc(=O)c(-c5ccccc5)c(C)c4c3)nc3c2oc2ccccc23)cc1OC,MIC,-,agar / visual reading,H37Rv,-,-,-,62.5 µg/mL
CC1(c2nc3cc(Cl)c(Cl)cc3[nH]2)CCC(CO)C(C)(C)O1,inhibition,-,resazurin,H37Rv,6.25 µg/mL,-,-,23%
CC1(C)CC(N=c2cc3n(-c4cc(Cl)cc(Cl)c4)c4ccccc4nc-3cc2Nc2cc(Cl)cc(Cl)c2)CC(C)(C)N1,MIC,-,-,TBRP321 (INH RMP-resistant),-,-,-,0.03 µg/mL
CC(C)NC(=O)OCc1c(COC(=O)NC(C)C)c(-c2ccc(Cl)c(Cl)c2)n2c1C[C@@H](OC(=O)CN(C)C)C2,inhibition,-,resazurin,H37Rv,6.25 µg/mL,-,-,-38%
Cc1cccc(NC(=O)c2cc3c(oc2=O)CC(C)(C)CC3=O)c1,MIC,-,resazurin,18b,-,-,-,8 µg/mL
COc1cc(C[C@@H](C)[C@@H](C)Cc2ccc(O)c(OC)c2)ccc1O,MIC,multidrug-resistant,resazurin,Clinical isolates,-,-,-,12.5–50 µg/mL
NC(=O)C(=CNC(=S)c1ccncc1)C(N)=O,MIC bound,-,resazurin,H37Rv,-,-,-,>6.25 µg/mL
Cc1cccc(N=Nc2c(O)c3cccc([N+](=O)[O-])c3[nH]c2=O)c1,MIC,-,resazurin,H37Rv,-,-,-,<6.25 µg/mL
Nc1nc(-c2ccc(F)cc2)cc(-c2cc3cc(F)ccc3nc2Cl)n1,inhibition,-,broth dilution,H37Rv,6.25 µg/mL,-,-,36%
Cc1nn(C(=S)S)c(C)c1N=Nc1ccc(O)cc1,MIC bound,-,BACTEC,H37Rv,-,-,-,≤128 µg/mL
C[C@@H]1CCC([C@@H](C)C(=O)OCCO)[C@]23OO[C@](C)(CCC12)O3,MIC,-,resazurin,H37Ra,-,-,-,0.39 µg/mL
Cc1ccc2[nH]c3c(c2c1)[n+]([O-])c1ccccc1[n+]3[O-],MIC,-,resazurin,H37Rv,-,-,-,0.2 µg/mL
CCCCSc1nc(C(N)=S)cnc1C(C)(C)C,MIC,-,-,H37Rv,-,-,-,>12.5 µg/mL
CN[C@@H]1[C@H](O[C@H]2[C@H](O[C@H]3[C@H](O)[C@@H](O)[C@H](N=C(N)N)[C@@H](O)[C@@H]3N=C(N)N)O[C@@H](C)[C@]2(O)C=O)O[C@@H](CO)[C@H](O)[C@H]1O,EC50,-,-,H37Rv,-,-,-,0.2 µg/mL
CC1(C)CC(N=c2cc3n(-c4ccc(Cl)c(Cl)c4)c4ccccc4nc-3cc2Nc2ccc(Cl)c(Cl)c2)CC(C)(C)N1,MIC,inside macrophages,-,H37Rv,-,Macrophages,-,0.03 µg/mL
Cc1cc(N=Nc2ccc(N(C)C)cc2)ccn1,MIC bound,-,resazurin,H37Rv,-,-,-,<6.25 µg/mL
C/C=C(/C)C(=O)OC1CC(C)(C)CC2C3=CCC4C5(C)CC[C@H](OC(C)=O)C(C)(C)C5CC[C@@]4(C)[C@]3(C)CC[C@@]12C(=O)O,MIC,-,-,H37Rv (streptomycin-resistant),-,-,-,25 µg/mL
O=C(NC(c1ccccc1)c1ccccc1)c1ccccc1,inhibition,-,BACTEC,H37Rv,12.5 µg/mL,-,-,0%
O=C(/C=C/c1cc2cc(F)ccc2nc1Cl)c1ccc(F)cc1,inhibition,-,broth dilution,H37Rv,6.25 µM,-,-,7%
Clc1cc2ns[s+]c2cc1Cl.[Cl-],inhibition,-,BACTEC,H37Rv,6.25 µg/mL,-,-,99%
CNc1nc(N2CCCC2)nc(-n2cnc(SCC(=O)OC)n2)n1,MIC,-,resazurin,Clinical isolate,-,-,-,16 µg/mL
C[C@H]1Oc2nc([N+](=O)[O-])cn2C[C@@H]1OCc1ccc(OC(F)(F)F)cc1,MIC,-,absorbance,H37Rv-T3,-,-,-,>100 µM
CO[C@H]1/C=C/O[C@@]2(C)Oc3c(C)c(O)c4c(O)c5c(c(O)c4c3C2=O)CN=C(N5)/C(C)=C\C=C\[C@H](C)[C@H](O)[C@@H](C)[C@@H](O)[C@@H](C)[C@H](OC(C)=O)[C@@H]1C,MIC,-,-,243,-,-,-,>1 µg/mL
O=c1[nH]oc(NS(=O)(=O)c2ccccc2)c1C1CCCCC1,inhibition,-,BACTEC,H37Rv,12.5 µg/mL,-,-,10%
O=C(NN1C(=O)CSC1c1ccccc1F)c1ccncc1,MIC,-,-,H37Rv,-,-,-,>5 µg/mL
O=c1[nH]c2c([N+](=O)[O-])cccc2c(O)c1N=Nc1cccc([N+](=O)[O-])c1,inhibition,-,resazurin,H37Rv,6.25 µg/mL,-,-,60%
COC(=O)C1=CO[C@@H](OC2OC(CO)C(O)C(O)C2O)[C@@H]2[C@H](C)[C@@H](O)[C@@H](O)[C@]12O,MIC,-,BACTEC,H37Rv,-,-,-,≥12.5 µg/mL
O=[N+]([O-])[O][Ga]([O][N+](=O)[O-])[O][N+](=O)[O-],EC50,inside macrophages,-,MDR isolates,-,-,-,<500 µM
CSc1nc(N)c(NC2O[C@@H](CO)[C@H](O)[C@H]2O)c(=O)[nH]1,MIC bound,-,resazurin,H37Rv,-,-,-,>6.25 µg/mL
COc1cc(O)c2c(=O)c(OC)c(-c3ccc(O)cc3)oc2c1OC,MIC,multidrug-resistant,resazurin,Clinical isolates,-,-,-,25–50 µg/mL
O=C(NN1C(=O)CSC1c1ccc(F)cc1)c1ccncc1,MIC,-,-,16PI,-,-,-,5 µg/mL
Cc1c(-c2ccccc2)c(=O)oc2ccc(-c3cc(-c4ccccc4)c4oc5ccccc5c4n3)cc12,inhibition,-,agar / visual reading,H37Rv,250 µg/mL,-,-,70%
O=C(NN1C(=O)CS(=O)(=O)C1c1ccccc1F)c1ccncc1,MIC,-,-,14PI,-,-,-,>5 µg/mL
CCn1c(C)c(C(=O)NCCOC)sc1=S,MIC,-,resazurin,18b,-,-,-,>16 µg/mL
C=C(C)C1CCC2=CC(CC3(C)OC3C3=CC(C(=O)OC)=C(C1)O3)OC2=O,inhibition,-,BACTEC,H37Rv,12.5 µg/mL,-,-,19%
NNC(=O)c1ccncc1,EC90,-,luminescence,H37Rv,-,-,pSMT1 luciferase reporter plasmid,0.04 µg/mL
O=[n+]1c2ccccc2n([O-])c2ccccc21.[Cl][Cu][Cl],MIC,-,-,H37Rv,-,VERO,-,3.1 µg/mL
CC(C)Cn1c(=O)c2c3c(cnc2n(CC(C)C)c1=O)C(=O)C1=C(C3=O)C2CCC1CC2,EC99,-,luminescence,H37Rv,-,-,pSMT1 luciferase reporter plasmid,12.28 µg/mL
CN1c2ccccc2CCC1CCc1ccc2c(c1)OCO2,MIC,-,-,MT6,-,-,-,>339 µg/mL
O=C1Cc2ccccc2/C1=C\c1cc2cc(Br)ccc2nc1Cl,inhibition,-,broth dilution,H37Rv,6.25 µg/mL,-,-,41%
c1cc2c(s1)CCOC21CCN(Cc2ccc3c(c2)OCCO3)CC1,fold resistance,-,fluorescence,H37Rv,-,-,MmpL3: Phe255Leu,≥33.3
CCCn1c(=O)c2c3c(cnc2n(CCC)c1=O)C(=O)C1=C(C3=O)C2CCC1C2,EC99,-,luminescence,H37Rv,-,-,pSMT1 luciferase reporter plasmid,6.23 µg/mL
Nc1nc(-c2cccc([N+](=O)[O-])c2)cc(-c2cc3cc(Br)ccc3nc2Cl)n1,inhibition,-,broth dilution,H37Rv,6.25 µg/mL,-,-,99%
CC(=O)N1N=C2C3CCN(CC3)C2C1c1cccc2ccccc12,MIC,-,resazurin,Clinical isolate,-,-,-,16 µg/mL
O=[N+]([O-])C1=CN2C[C@H](OCc3ccc(OC(F)(F)F)cc3)COC2N1,MIC,-,broth dilution,F420-,-,-,-,>100 µM

Repeating the first 4 entries:

smiles | endpoint | conditions | method | strain | tested at | cell line | changes | result
CCOc1cccc(C(=O)N(Cc2ccccc2)C2CCS(=O)(=O)C2)c1 | MIC | - | resazurin | Clinical isolate | - | - | - | 4 µg/mL
O=C(/C=C/c1cc2cc(F)ccc2nc1Cl)c1cccs1 | inhibition | - | broth dilution | H37Rv | 6.25 µM | - | - | 21%
CCCCCCCCc1ccc(Oc2ccccc2)c(O)c1 | MIC99 | - | - | NHN20 | - | - | - | 2.4 µg/mL
CC(=O)c1c(C)[nH]c(C(=O)N/N=C/c2cccc([N+](=O)[O-])c2)c1C | inhibition | - | resazurin | H37Rv | 6.25 µg/mL | - | - | 18%